The text below walks through data of US20130065857A1, “NOVEL DXR INHIBITORS FOR ANTIMICROBIAL THERAPY” (Baylor College of Medicine, priority 2009, published 2013).

For this test, the system named is E. coli, Pseudomonas aeruginosa, Bacillus anthracis and Micrococcus luteus. Briefly: Antibacterial activity assay (MIC), stated over all four bacteria. Format: cell-based. The conditions noted are these: span over four bacterial species; tested form: disodium salt.

On to `O=P(O)(O)CCc1ccc(O)c(O)c1`, for which the “MICs over the four bacteria” value was at least 1000 µM.
